PMC4844700, “Rifampin phosphotransferase is an unusual antibiotic resistance kinase” (Nature Communications, 2016)

These substances were tested on CO[C@H]1/C=C/O[C@@]2(C)Oc3c(C)c(O)c4c(O)c(c(/C=N/N5CCN(C)CC5)c(O)c4c3C2=O)NC(=O)/C(C)=C\C=C\[C@H](C)[C@H](O)[C@@H](C)[C@@H](O)[C@@H](C)[C@H](OC(C)=O)[C@@H]1C (assay: purified protein). Details: ATP at five times its Km, 50 mM Hepes pH 7.5, 5 mM MgCl2, 40 mM NH4Cl, 25 °C, 11.3 μM enzyme.

Row | Substance | Km [µM] | kcat [s⁻¹] | kcat/Km [M⁻¹ s⁻¹]
1 | RPH-Lm (rifampin phosphotransferase) (Listeria monocytogenes serotype 4b str. F2365; E297A) | 4.76 ± 1.26 | 45 | 9.43e+06
2 | RPH-Lm (rifampin phosphotransferase) (Listeria monocytogenes serotype 4b str. F2365; Q337A) | 6 ± 2 | 15.4 | 2.7e+06
3 | RPH-Lm (rifampin phosphotransferase) (Listeria monocytogenes serotype 4b str. F2365; V368E) | 4.56 ± 1.78 | 45.7 | 9.8e+06
4 | RPH-Lm (rifampin phosphotransferase) (Listeria monocytogenes serotype 4b str. F2365; V368T) | 3.65 ± 1.09 | 30 | 8.22e+06
5 | RPH-Lm (rifampin phosphotransferase) (Listeria monocytogenes serotype 4b str. F2365; Y351F) | 4.08 ± 1.55 | 15.9 | 3.89e+06

The substances below were run on Nc1ncnc2c1ncn2[C@@H]1O[C@H](COP(=O)(O)OP(=O)(O)OP(=O)(O)O)[C@@H](O)[C@H]1O (assay: purified protein). Details: RIF at five times its Km, 50 mM Hepes pH 7.5, 5 mM MgCl2, 40 mM NH4Cl, 25 °C, 11.3 μM enzyme.

Row | Substance | Km [µM] | kcat [s⁻¹] | kcat/Km [M⁻¹ s⁻¹]
6 | RPH-Lm (rifampin phosphotransferase) (Listeria monocytogenes serotype 4b str. F2365; E297A) | 49.49 ± 6.85 | 43.2 | 873000
7 | RPH-Lm (rifampin phosphotransferase) (Listeria monocytogenes serotype 4b str. F2365; E667A) | 24.65 ± 5.19 | 1.78 | 72000
8 | RPH-Lm (rifampin phosphotransferase) (Listeria monocytogenes serotype 4b str. F2365; R117A) | 56.12 ± 8.36 | 2.39 | 43000
9 | RPH-Lm (rifampin phosphotransferase) (Listeria monocytogenes serotype 4b str. F2365; R666A) | 169.29 ± 43.68 | 2.71 | 16000
10 | RPH-Lm (rifampin phosphotransferase) (Listeria monocytogenes serotype 4b str. F2365; T136V) | 53.88 ± 6.54 | 2.1 | 39500
